Patent US20260166162A1, “CARBON CHAIN SUBSTANCE FOR REGULATING TRANSMEMBRANE TRANSPORT AND FLUIDITY OF CELL MEMBRANES, AND PREPARATION AND USE THEREOF” (priority 2022, published 2026)

Tested on: viruses and bacteria
Conditions: concentration 0.035 mM

For “ALA-HSA: serum albumin grafted with linolenic acid by amide bonds (Example 1)”, the “virus killing and bacterial killing abilities” value was “greater than 99%”.
